Results deposited as PubChem BioAssay AID1224833 (University of Georgia, 2016).
The whole screen tested about 12,000 reagents; shown is an unselected part. About 5,600 of all reagents (46%) were called active. 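Active calls cover z-scores past 1 in both directions, so they include lowered as well as raised rotavirus replication.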 Entries without a mark were called inactive. Reagent sequences are not shown.

Test: 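Host factors restraining rotavirus as candidate antiviral genes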 (primary screen)
Cells: monkey MA104 kidney cells
Reagent: siRNA pool against human genes, 50 nM
Time to read-out: 48 h knock-down before infection; read 24 h after infection
Challenge: infection with rotavirus strain RV3 two days after transfection; infectious dose for this stage not given
Detection: 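z-score of rotavirus antigen signal per well, from a fluorescent immunoassay, relative to non-targeting control wells on the same plate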
Reading the numbers: z-score vs non-targeting control: higher = more rotavirus replication than with non-targeting control
Rule for the call: In these data the active calls have z-score vs non-targeting control at about -1 or lower, or at about 1 or higher
Calls: active = z-score beyond 1 either way; inactive = z-score within 1 of zero

SLC9A8 (GeneID 23315) | z-score vs non-targeting control: 0.0305
LIN7B (GeneID 64130) | z-score vs non-targeting control: -0.755
ACBD6 (GeneID 84320) | z-score vs non-targeting control: -1.64 (active)
GART (GeneID 2618) | z-score vs non-targeting control: -0.871
POMGNT1 (GeneID 55624) | z-score vs non-targeting control: -1.49 (active)
GADD45GIP1 (GeneID 90480) | z-score vs non-targeting control: 0.528
ZNF687 (GeneID 57592) | z-score vs non-targeting control: -0.756
ATPAF1 (GeneID 64756) | z-score vs non-targeting control: -2.34 (active)
SLC44A4 (GeneID 80736) | z-score vs non-targeting control: -1.64 (active)
TMEM184A (GeneID 202915) | z-score vs non-targeting control: -0.571
GPR157 (GeneID 80045) | z-score vs non-targeting control: -1.59 (active)
PFDN4 (GeneID 5203) | z-score vs non-targeting control: -0.559
COPS7B (GeneID 64708) | z-score vs non-targeting control: -0.235
SULF2 (GeneID 55959) | z-score vs non-targeting control: -0.24
IL11 (GeneID 3589) | z-score vs non-targeting control: -1.94 (active)
MMP16 (GeneID 4325) | z-score vs non-targeting control: -1.16 (active)
SIRPB1 (GeneID 10326) | z-score vs non-targeting control: 0.133
LMF2 (GeneID 91289) | z-score vs non-targeting control: -1.25 (active)
RIT2 (GeneID 6014) | z-score vs non-targeting control: -2.41 (active)
APLN (GeneID 8862) | z-score vs non-targeting control: -1.28 (active)
TMEM150A (GeneID 129303) | z-score vs non-targeting control: -0.97
SEC22C (GeneID 9117) | z-score vs non-targeting control: 0.364
CMSS1 (GeneID 84319) | z-score vs non-targeting control: 0.557
BLOC1S6 (GeneID 26258) | z-score vs non-targeting control: -0.517
SRGAP2 (GeneID 23380) | z-score vs non-targeting control: 1.85 (active)
KIN (GeneID 22944) | z-score vs non-targeting control: -0.154
SUGCT (GeneID 79783) | z-score vs non-targeting control: -1.13 (active)
CTAGE1 (GeneID 64693) | z-score vs non-targeting control: -1.12 (active)
PRRC2C (GeneID 23215) | z-score vs non-targeting control: -0.0497
ING4 (GeneID 51147) | z-score vs non-targeting control: -0.182

Laid out differently: 8 of the entries above
LIN7B (GeneID 64130)
- z-score vs non-targeting control: -0.755

ACBD6 (GeneID 84320)
- z-score vs non-targeting control: -1.64 (active)

GART (GeneID 2618)
- z-score vs non-targeting control: -0.871

POMGNT1 (GeneID 55624)
- z-score vs non-targeting control: -1.49 (active)

GADD45GIP1 (GeneID 90480)
- z-score vs non-targeting control: 0.528

ZNF687 (GeneID 57592)
- z-score vs non-targeting control: -0.756

ATPAF1 (GeneID 64756)
- z-score vs non-targeting control: -2.34 (active)

SLC44A4 (GeneID 80736)
- z-score vs non-targeting control: -1.64 (active)

Continued.
STX2 (GeneID 2054) | z-score vs non-targeting control: 1.02 (active)
RDH5 (GeneID 5959) | z-score vs non-targeting control: 0.845
ZC3H15 (GeneID 55854) | z-score vs non-targeting control: 0.611
PNPLA3 (GeneID 80339) | z-score vs non-targeting control: -0.0416
ERC1 (GeneID 23085) | z-score vs non-targeting control: 0.834
WFDC12 (GeneID 128488) | z-score vs non-targeting control: -0.022
RUFY2 (GeneID 55680) | z-score vs non-targeting control: 1.9 (active)
SLC25A28 (GeneID 81894) | z-score vs non-targeting control: -2.13 (active)
RPL10 (GeneID 6134) | z-score vs non-targeting control: 0.0027
SRRD (GeneID 402055) | z-score vs non-targeting control: -0.824
NOP14 (GeneID 8602) | z-score vs non-targeting control: 0.0819
STAT5B (GeneID 6777) | z-score vs non-targeting control: -0.814
ZNF530 (GeneID 348327) | z-score vs non-targeting control: -0.694
DDAH1 (GeneID 23576) | z-score vs non-targeting control: -0.721
SEPTIN9 (GeneID 10801) | z-score vs non-targeting control: 0.659
ZFAT (GeneID 57623) | z-score vs non-targeting control: -0.937
MYEOV (GeneID 26579) | z-score vs non-targeting control: 0.19
